In the supplement of paper PMC3578754:
Fold change is the IC50 on the isolate divided by the IC50 on a reference virus; 1 = unchanged, higher = more resistant. Changes are given against the subtype B consensus. No active / inactive call. The values were gathered from many studies (numbered anew) with different assays, which the source does not name. Most viruses are clinical isolates; some are laboratory strains or clones with known resistance changes. Isolates with mixed residues are left out; stretches that were not sequenced show no change. Round top values that many isolates share are read here as limits; other very high values and 0.1 may be limits too. The protease changes I3V and N37S, insertions and deletions cannot be read from the source.

Legend:
Experiment in all cases: fold change of IC50 against reference virus; higher = more resistant; Cell-culture drug susceptibility tests of virus bearing the protease of each isolate, gathered from many studies.
nelfinavir = compound: Cc1c(O)cccc1C(=O)N[C@@H](CSc1ccccc1)[C@H](O)CN1C[C@H]2CCCC[C@H]2C[C@H]1C(=O)NC(C)(C)C [nelfinavir]
lopinavir = compound: Cc1cccc(C)c1OCC(=O)N[C@@H](Cc1ccccc1)[C@@H](O)C[C@H](Cc1ccccc1)NC(=O)[C@H](C(C)C)N1CCCNC1=O [lopinavir]
ritonavir = compound: CC(C)c1nc(CN(C)C(=O)N[C@H](C(=O)N[C@@H](Cc2ccccc2)C[C@H](O)[C@H](Cc2ccccc2)NC(=O)OCc2cncs2)C(C)C)cs1 [ritonavir]
tipranavir = compound: CCC[C@@]1(CCc2ccccc2)CC(O)=C([C@H](CC)c2cccc(NS(=O)(=O)c3ccc(C(F)(F)F)cn3)c2)C(=O)O1 [tipranavir]
atazanavir = compound: COC(=O)N[C@H](C(=O)N[C@@H](Cc1ccccc1)[C@@H](O)CN(Cc1ccc(-c2ccccn2)cc1)NC(=O)[C@@H](NC(=O)OC)C(C)(C)C)C(C)(C)C [atazanavir]
indinavir = compound: CC(C)(C)NC(=O)[C@@H]1CN(Cc2cccnc2)CCN1C[C@@H](O)C[C@@H](Cc1ccccc1)C(=O)N[C@H]1c2ccccc2C[C@H]1O [indinavir]
saquinavir = compound: CC(C)(C)NC(=O)[C@@H]1C[C@@H]2CCCC[C@@H]2CN1C[C@@H](O)[C@H](Cc1ccccc1)NC(=O)[C@H](CC(N)=O)NC(=O)c1ccc2ccccc2n1 [saquinavir]

Test System: HIV-1 isolate 2 (protease changes: L10I E35D M36I G48V I50V I54V I62V L63A A71V V82T, study 64)
- fold change of IC50 against reference virus (nelfinavir): 12
- fold change of IC50 against reference virus (lopinavir): 65
- fold change of IC50 against reference virus (ritonavir): 41
- fold change of IC50 against reference virus (tipranavir): 0.2
- fold change of IC50 against reference virus (atazanavir): 4.6
- fold change of IC50 against reference virus (indinavir): 30

Test System: HIV-1 isolate 5 (protease changes: L33F K43T L63C H69Q V77I, study 64)
- fold change of IC50 against reference virus (saquinavir): 1.9
- fold change of IC50 against reference virus (nelfinavir): 2.7
- fold change of IC50 against reference virus (lopinavir): 2.8
- fold change of IC50 against reference virus (ritonavir): 4.2
- fold change of IC50 against reference virus (tipranavir): 3.5
- fold change of IC50 against reference virus (atazanavir): 2.7
- fold change of IC50 against reference virus (indinavir): 2.8

Test System: HIV-1 isolate 17 (protease changes: I15V R41K L63A I64V K70R, study 64)
- fold change of IC50 against reference virus (saquinavir): 0.8
- fold change of IC50 against reference virus (nelfinavir): 1
- fold change of IC50 against reference virus (lopinavir): 0.7
- fold change of IC50 against reference virus (ritonavir): 0.8
- fold change of IC50 against reference virus (tipranavir): 1.2
- fold change of IC50 against reference virus (atazanavir): 0.7
- fold change of IC50 against reference virus (indinavir): 0.7

Test System: HIV-1 isolate 34 (protease changes: L10V T12V I13V I15V K20M V32I L33F K43T M46I I47V I54M D60E Q61N I62V L63P C67Y H69K A71I I72L G73S V77I V82A L89V L90M, study 64)
- fold change of IC50 against reference virus (saquinavir): 12
- fold change of IC50 against reference virus (nelfinavir): 76
- fold change of IC50 against reference virus (lopinavir): ≥ 500
- fold change of IC50 against reference virus (ritonavir): ≥ 800
- fold change of IC50 against reference virus (tipranavir): 12
- fold change of IC50 against reference virus (atazanavir): 88
- fold change of IC50 against reference virus (indinavir): 88

Test System: HIV-1 isolate 37 (protease changes: L33I I62V L63T I64L A71V I72T I93L, study 64)
- fold change of IC50 against reference virus (saquinavir): 0.9
- fold change of IC50 against reference virus (nelfinavir): 1.4
- fold change of IC50 against reference virus (lopinavir): 0.7
- fold change of IC50 against reference virus (ritonavir): 0.9
- fold change of IC50 against reference virus (tipranavir): 1.2
- fold change of IC50 against reference virus (atazanavir): 0.9
- fold change of IC50 against reference virus (indinavir): 1.1

Test System: HIV-1 isolate 38 (protease changes: I13V K20T E35N M36I N37E I62V L63P K70R A71I T74S L90M I93L, study 64)
- fold change of IC50 against reference virus (saquinavir): 11
- fold change of IC50 against reference virus (nelfinavir): 63
- fold change of IC50 against reference virus (lopinavir): 3.6
- fold change of IC50 against reference virus (ritonavir): 17
- fold change of IC50 against reference virus (tipranavir): 3.2
- fold change of IC50 against reference virus (atazanavir): 16
- fold change of IC50 against reference virus (indinavir): 7

Test System: HIV-1 isolate 40 (protease changes: L10I I13V L24I L33F M36L K43T M46I I54V D60E I62V L63P A71V T74S V82A N83D I93L, study 64)
- fold change of IC50 against reference virus (saquinavir): 29
- fold change of IC50 against reference virus (nelfinavir): 149
- fold change of IC50 against reference virus (lopinavir): 49
- fold change of IC50 against reference virus (ritonavir): 132
- fold change of IC50 against reference virus (tipranavir): 1.6
- fold change of IC50 against reference virus (atazanavir): 98
- fold change of IC50 against reference virus (indinavir): 16

Test System: HIV-1 isolate 46 (protease changes: T12N L63P H69Q V77I I93L, study 64)
- fold change of IC50 against reference virus (saquinavir): 0.6
- fold change of IC50 against reference virus (nelfinavir): 2.1
- fold change of IC50 against reference virus (lopinavir): 0.6
- fold change of IC50 against reference virus (ritonavir): 1
- fold change of IC50 against reference virus (tipranavir): 0.8
- fold change of IC50 against reference virus (atazanavir): 1
- fold change of IC50 against reference virus (indinavir): 1.2

Test System: HIV-1 isolate 50 (protease changes: I13V R41K D60E L63P, study 64)
- fold change of IC50 against reference virus (saquinavir): 1.3
- fold change of IC50 against reference virus (nelfinavir): 1.3
- fold change of IC50 against reference virus (lopinavir): 1
- fold change of IC50 against reference virus (ritonavir): 1.2
- fold change of IC50 against reference virus (tipranavir): 1.6
- fold change of IC50 against reference virus (atazanavir): 1.1
- fold change of IC50 against reference virus (indinavir): 1

Test System: HIV-1 isolate 77 (protease changes: L10I L33F M46L I54V L63P A71V G73S V77I I84V L90M I93L, study 64)
- fold change of IC50 against reference virus (saquinavir): 55
- fold change of IC50 against reference virus (nelfinavir): 36
- fold change of IC50 against reference virus (lopinavir): 27
- fold change of IC50 against reference virus (ritonavir): 66
- fold change of IC50 against reference virus (tipranavir): 3.5
- fold change of IC50 against reference virus (atazanavir): 47

Test System: HIV-1 isolate 82 (protease changes: L10I I15V I54L I62V L63P I93L, study 64)
- fold change of IC50 against reference virus (saquinavir): 1.6
- fold change of IC50 against reference virus (nelfinavir): 2.5
- fold change of IC50 against reference virus (lopinavir): 4.6
- fold change of IC50 against reference virus (ritonavir): 5
- fold change of IC50 against reference virus (tipranavir): 1.7
- fold change of IC50 against reference virus (atazanavir): 1.7
- fold change of IC50 against reference virus (indinavir): 1.8

Test System: HIV-1 isolate 154 (protease changes: L10I I15V L24I M46L I54V L63P A71V V77I V82A I84V, study 64)
- fold change of IC50 against reference virus (saquinavir): 14
- fold change of IC50 against reference virus (nelfinavir): 9.5
- fold change of IC50 against reference virus (lopinavir): 18
- fold change of IC50 against reference virus (ritonavir): 77
- fold change of IC50 against reference virus (tipranavir): 1.7
- fold change of IC50 against reference virus (atazanavir): 7.5

Test System: HIV-1 isolate 193 (protease changes: L10I I15V L23I M46L F53L I54V I62V L63V H69R A71V I72K L76V V82A L89M I93L, study 64)
- fold change of IC50 against reference virus (saquinavir): 6.3
- fold change of IC50 against reference virus (nelfinavir): 17
- fold change of IC50 against reference virus (lopinavir): 143
- fold change of IC50 against reference virus (ritonavir): 64
- fold change of IC50 against reference virus (tipranavir): 0.6
- fold change of IC50 against reference virus (atazanavir): 2.4

Test System: HIV-1 isolate 275 (protease changes: L10I I13V L33F R41K M46L I54V K55R Q58E D60E Q61E L63P A71T I72T G73C V82A I84V L90M, study 64)
- fold change of IC50 against reference virus (nelfinavir): 30
- fold change of IC50 against reference virus (lopinavir): 129
- fold change of IC50 against reference virus (ritonavir): ≥ 800
- fold change of IC50 against reference virus (tipranavir): 11
- fold change of IC50 against reference virus (atazanavir): 72
- fold change of IC50 against reference virus (indinavir): 42

Test System: HIV-1 isolate 401 (protease changes: L38I K43R I62V L63P V77I I93L, study 64)
- fold change of IC50 against reference virus (saquinavir): 0.6
- fold change of IC50 against reference virus (nelfinavir): 1
- fold change of IC50 against reference virus (lopinavir): 0.3
- fold change of IC50 against reference virus (ritonavir): 0.4
- fold change of IC50 against reference virus (tipranavir): 0.6
- fold change of IC50 against reference virus (atazanavir): 0.7

Test System: HIV-1 isolate 419 (protease changes: L10I K20I E35D M36I K43T G48M I54V L63Q I64V H69R A71V I72V P79Q I84V I85V L90M I93L, study 64)
- fold change of IC50 against reference virus (nelfinavir): 47
- fold change of IC50 against reference virus (lopinavir): 43
- fold change of IC50 against reference virus (ritonavir): 114
- fold change of IC50 against reference virus (tipranavir): 2
- fold change of IC50 against reference virus (atazanavir): 100
- fold change of IC50 against reference virus (indinavir): 54
